A mixed list of measured activities; the numbers were collected in NIAID ChemDB.

Shared fields: growth or infection tests

Inhibition is in % at the dose shown (toxicity tests: loss of growth or viability).

compound,method,cell line,organism,dose,measure,strain,result
Nc1nc2c(ncn2C=C2CC2CO)c(=O)[nH]1,plaque count,-,Human cytomegalovirus,-,EC90,VR3480 (ganciclovir-resistant),6.8 µM
O=S(=O)([O-])c1cc(S(=O)(=O)[O-])c2cc(NS(=O)(=O)c3ccccc3)ccc2c1,cytopathic effect,Human embryonic lung cells,Adenovirus,10 µg/mL,inhibition,TYPE 3,10%
O=c1[nH]c(=O)n([C@H]2C[C@H](O)[C@@H](CO)O2)cc1I,plaque count,HELF,Varicella zoster virus,10 µg/mL,inhibition,YS,100%
Nc1c(S(=O)(=O)[O-])cc2cc(S(=O)(=O)[O-])ccc2c1O,cytopathic effect,Human amnion AV3 cells,Rhinovirus,10 µg/mL,inhibition,-,0%
CCC(CC)O[C@@H]1C=C(C(=O)O)C[C@H](N)[C@H]1NC(C)=O,-,MDCK,Influenza A virus,-,EC50,H1N1 A/PR/8/34,0.22 µM
CCOC(=O)c1c(C)nc(NCCCNc2ccnc3cc(Cl)ccc23)nc1-c1ccccc1,-,-,Cryptococcus gattii,-,MIC99,135L/03,8 µg/mL
C=CCc1ccc(O)c(OC)c1,turbidity,-,Candida albicans,-,MIC90,2261,500 µg/mL
O=S(=O)([O-])c1ccccc1S(=O)(=O)[O-],cytopathic effect,Human embryonic lung cells,Rhinovirus,5 µg/mL,inhibition,-,0%
CCOC(=O)c1c(C)nc(NCCCCNc2ccnc3cc(Cl)ccc23)nc1-c1ccc(F)cc1,-,-,Cryptococcus gattii,-,MIC99,29/10893,4 µg/mL
CCO/N=C/c1ccc(OCCC2CCN(c3ccc(Cl)nn3)CC2)cc1,neutral red,KB,Rhinovirus,-,EC50,K2207 (ICAM-1 receptor group 72),0.077 µM
O=c1[nH]c(=O)n([C@@H]2O[C@H](CO)[C@@H](O)[C@@H]2O)cc1/C=C/Br,plaque count,HELF,Varicella zoster virus,0.01 µg/mL,inhibition,KANNO,100%
CN[C@H]1CC[C@@H](c2ccc(Cl)c(Cl)c2)c2ccccc21,broth dilution,-,Cryptococcus neoformans,-,MIC90,123.96,4 µg/mL
CCC(CC)O[C@@H]1C=C(C(=O)O)C[C@H](N)[C@H]1NC(C)=O,plaque count,MDCK,Influenza A virus,-,EC50,H1N1 isolate C28C,0.01 µg/mL
COc1cc(-c2ccc(N=Nc3ccc4c(S(=O)(=O)O)cc(S(=O)(=O)O)c(N)c4c3O)c(OC)c2)ccc1N=Nc1ccc2c(S(=O)(=O)O)cc(S(=O)(=O)O)c(N)c2c1O,cytopathic effect,Human amnion AV3 cells,Adenovirus,5 µg/mL,inhibition,TYPE 3,0%
Cc1nc(NCCCCNc2ccnc3cc(Cl)ccc23)nc(-c2ccccc2[N+](=O)[O-])c1C(=O)OC(C)C,-,-,Cryptococcus gattii,-,MIC99,196L/03,8 µg/mL
Nc1nc(=O)n([C@@H]2O[C@H](CO)[C@@H](O)[C@@H]2F)cc1I,plaque count,HELF,Varicella zoster virus,0.001 µg/mL,inhibition,OKA,0%
Cc1cc(CCCOc2c(C)cc(-c3noc(C(F)(F)F)n3)cc2C)on1,cytopathic effect / visual reading,OHIO HELA-I,Rhinovirus,-,EC50,Isolate 29,>1 µg/mL
O=S(=O)(O)c1ccc(N=Nc2c(O)ccc3cc(S(=O)(=O)O)ccc23)cc1,cytopathic effect,Human embryonic lung cells,Adenovirus,10 µg/mL,inhibition,TYPE 3,0%
Oc1ccccc1N=Cc1ccccc1,-,-,Cryptococcus gattii,-,MIC99,ATCC 32608,16 µg/mL
Nc1ccc2cc(S(=O)(=O)O)cc(S(=O)(=O)O)c2c1,cytopathic effect,Human embryonic lung cells,Adenovirus,10 µg/mL,inhibition,TYPE 3,0%
CCc1cn([C@@H]2O[C@H](CO)[C@@H](O)[C@@H]2O)c(=O)[nH]c1=O,plaque count,HELF,Varicella zoster virus,100 µg/mL,inhibition,OKA,0%
O=C1C(c2[nH]c3ccc(S(=O)(=O)O)cc3c2O)=Nc2ccc(S(=O)(=O)O)cc21,cytopathic effect,Human amnion AV3 cells,Herpes simplex virus,10 µg/mL,inhibition,-,0%
O=c1[nH]c(=O)n([C@H]2C[C@H](O)[C@@H](CO)O2)cc1/C=C/Br,plaque count,HELF,Varicella zoster virus,0.01 µg/mL,inhibition,Ohtomo,100%

A second listing of 2 rows from above:

compound,method,cell line,organism,dose,measure,strain,result
CCOC(=O)c1c(C)nc(NCCCCNc2ccnc3cc(Cl)ccc23)nc1-c1ccc(F)cc1,-,-,Cryptococcus gattii,-,MIC99,29/10893,4 µg/mL
CCc1cn([C@@H]2O[C@H](CO)[C@@H](O)[C@@H]2O)c(=O)[nH]c1=O,plaque count,HELF,Varicella zoster virus,100 µg/mL,inhibition,OKA,0%

An empty or dashed field is not shown. ECn is the concentration giving n% inhibition of infection, replication or growth. Neighbouring rows are from separate reports. MIC50, MIC90 and the like: level of inhibition, or share of isolates inhibited.